Measured values published in patent US9226954B2, “Method for treating and confirming diagnosis of exertional compartment syndrome” (dated 2016).

System: adductor longus muscle
Assay: Targeted botulinum toxin injection into the distal adductor longus of a patient with exertional compartment syndrome
[1] = overall conclusion of the example

## onabotulinumtoxin A
After injection, CT imaging
  post procedural complications: No evidence of post procedural complications
Approximately 15-30 minutes following the procedure
  adverse reactions during monitoring: no adverse reactions
Day following the injection
  injection site findings at follow-up phone call: minor bruising and pain at the injection site
Five weeks post treatment
  symptoms while competing at full activity: completely asymptomatic
Improved with continued training
  weakness at full activity: minimal weakness with lateral motion
[1]
  effect on athletic performance: no adverse affect on athletic performance
  resolution of symptoms: complete resolution of symptoms
Three weeks after treatment, at rest and under stress
  compression of femoral artery and femoral vein on ultrasound (FIGS. 8A, 8B): no compression
Three weeks follow-up
  adverse side effects: no adverse side effects were observed or reported
Three weeks post injection
  symptoms at full activity: completely asymptomatic
  venous compression under stress maneuvers on sonographic imaging: no evidence of venous compression
